Experimental data published in ChEMBL document CHEMBL1155139 (Antimicrob Agents Chemother, 2007).

Columns and labels:
Plasmodium falciparum [1] = experiment: Antimalarial activity against Plasmodium falciparum NF54; type: functional, organism-based
Plasmodium falciparum [2] = experiment: Antimalarial activity against Plasmodium falciparum W2
Plasmodium falciparum [3] = experiment: Antimalarial activity against Plasmodium falciparum D6
Plasmodium falciparum [4] = experiment: Antimalarial activity against Plasmodium falciparum K1; type: functional, organism-based

Structure (SMILES)	IC50 (Plasmodium falciparum [1])	IC50 (Plasmodium falciparum [2])	IC50 (Plasmodium falciparum [3])	IC50 (Plasmodium falciparum [4])
C1CC2(CCO1)OOC1(CCOCC1)OO2	0.044 mg/L (≈ 0.189 µM)	0.068 mg/L (≈ 0.293 µM)	0.1 mg/L (≈ 0.431 µM)	0.078 mg/L (≈ 0.336 µM)
C1CCC2(C1)OOC1(CCCC1)OO2	0.023 mg/L (≈ 0.115 µM)	–	–	0.051 mg/L (≈ 0.255 µM)

≈ marks a conversion by molar mass, not a printed value.
